Results of unrelated studies side by side (data: NIAID ChemDB).

Common to all: target-level tests; agent: HIV-1; target: Integrase; read-out: IC50

a–b is a range or a potency band.

SMILES,method,result
O=C1C(=O)N(Cc2ccc([N+](=O)[O-])cc2)c2ccccc21,strand transfer,333 µM
CC1c2nc(C(=O)NCc3ccc(F)cc3)c(O)c(=O)n2CCN1Cc1ccnn1C,ELISA,<10 µM
O=C(O)/C(O)=C/C(=O)N(CCc1ccc(F)cc1)Cc1csc2ccc(Cl)cc12,strand transfer,<70 µM
CC(=O)N1CCOCC1Cn1c(=O)c(O)c2n(c1=O)CCN(Cc1ccc(F)cc1)C2=O,strand transfer,<10 µM
Cc1cnc(-c2cn3ccn(Cc4cccc(Cl)c4)c(=O)c3c(O)c2=O)s1,ELISA,<0.01 µM
Cc1ccc(CN(C(=O)/C=C(\O)C(=O)O)c2ccc(F)cc2)cc1,strand transfer,<70 µM
O=C1c2c(O)c(=O)n(CC3CCCN(c4ncccn4)C3)c(=O)n2CCN1Cc1ccc(F)cc1,strand transfer,<10 µM
CN(C)C(=O)C(=O)N(C)C1COCCn2c1nc(C(=O)NCc1ccc(F)cc1)c(O)c2=O,ELISA,<10 µM
O=C1c2c(O)c(=O)n([C@@H]3CCCC[C@H]3O)c(=O)n2CCN1Cc1ccc(F)cc1,strand transfer,<10 µM
CN(Cc1ccccc1Cc1ccccc1)C(=O)/C=C(\O)C(=O)O,strand transfer,<70 µM
CS(=O)(=O)c1ccc(CNC(=O)c2cn3c(c(O)c2=O)C(=O)N(Cc2ccc(F)cc2)CC3)cc1,ELISA,0.01–0.1 µM
CCNC(=O)N1CCn2c(nc(C(=O)NCc3ccc(F)cc3)c(O)c2=O)C1(C)C,ELISA,<10 µM
O=[N+]([O-])c1ccc(CSc2nc3ccccc3s2)cc1,3′ processing,>1000 µM
CN(Cc1cccc(F)c1)C(=O)/C=C(\O)C(=O)O,strand transfer,<70 µM
CS(=O)(=O)Nc1cn2ccn(Cc3ccc(F)cc3)c(=O)c2c(O)c1=O,ELISA,<0.01 µM
CC(C)(C)C1CCC(n2c(=O)c(O)c3n(c2=O)CCN(Cc2ccc(F)cc2)C3=O)CC1,strand transfer,<10 µM
Cc1cc(=O)n(-c2cccc([N+](=O)[O-])c2)n1C(=O)c1ccco1,strand transfer,>1000 µM
O=C1c2c(O)c(=O)c(-c3cnccn3)cn2CCN1Cc1ccc(F)c(Cl)c1,ELISA,0.01–0.1 µM
O=C1c2c(O)c(=O)n([C@@H]3C[C@H]3c3ccccc3)c(=O)n2CCN1Cc1ccc(F)cc1,strand transfer,<10 µM
O=C1c2c(O)c(=O)ccn2CCN1Cc1cccc(Cl)c1,ELISA,0.01–0.1 µM
CC(c1ccccn1)n1c(=O)c(O)c2n(c1=O)CCN(Cc1ccc(F)cc1)C2=O,strand transfer,<10 µM
CCC(O)c1cn(Cc2ccc(Cl)c(Cl)c2)c(=O)c2c(O)c(=O)ccn12,ELISA,0.01–0.1 µM
O=C1c2c(O)c(=O)n(C3CCCC3)c(=O)n2CCN1Cc1ccc(F)cc1,strand transfer,<10 µM
O=C1c2c(O)c(=O)c(-c3nccs3)cn2CCN1Cc1ccc(Cl)cc1,ELISA,0.01–0.1 µM
O=C1c2c(O)c(=O)n(C3CCOCC3)c(=O)n2CCN1Cc1ccc(F)cc1,strand transfer,<10 µM
O=C(O)CN1CCn2c(nc(C(=O)NCc3ccc(F)cc3)c(O)c2=O)C1,ELISA,<10 µM
CN(Cc1ccccc1-c1ccccc1)C(=O)/C=C(\O)C(=O)O,strand transfer,<70 µM
O=C1c2c(O)c(=O)n(CC3CCCN4CCCCC34)c(=O)n2CCN1Cc1ccc(F)cc1,strand transfer,<10 µM
Cc1ccc(CNC(=O)/C=C(\O)C(=O)O)cc1,strand transfer,<70 µM
O=c1c(-c2ccccc2F)cn2ccn(Cc3cccc(Cl)c3)c(=O)c2c1O,ELISA,<0.01 µM
O=S(=O)(Cc1ccc(Br)cc1)c1nc2ccccc2s1,3′ processing,>1000 µM

For reference, 4 entries again:

CS(=O)(=O)Nc1cn2ccn(Cc3ccc(F)cc3)c(=O)c2c(O)c1=O ; method: ELISA ; result: <0.01 µM
O=c1c(-c2ccccc2F)cn2ccn(Cc3cccc(Cl)c3)c(=O)c2c1O ; method: ELISA ; result: <0.01 µM
CS(=O)(=O)c1ccc(CNC(=O)c2cn3c(c(O)c2=O)C(=O)N(Cc2ccc(F)cc2)CC3)cc1 ; method: ELISA ; result: 0.01–0.1 µM
CN(Cc1ccccc1-c1ccccc1)C(=O)/C=C(\O)C(=O)O ; method: strand transfer ; result: <70 µM

Conditions beyond the fields shown may differ between rows. ICn is the concentration giving n% inhibition.